Test results from US20110014209.

Biological target: T1, CD81 MBP-LEL containing the F186S mutation, human, P60033 113-201
T1 sequence: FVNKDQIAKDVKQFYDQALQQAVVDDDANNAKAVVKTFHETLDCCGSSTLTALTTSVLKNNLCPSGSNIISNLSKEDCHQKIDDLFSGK
Experiment: MBP-LEL ELISA, H53 detection

**Q.** E2Δ1-his mature protein was tested. Which result did it give?
**A.** The result was “no binding”.
